From article PMC3020944, “Structure-Activity Relationship of Cinnamaldehyde Analogs as Inhibitors of AI-2 Based Quorum Sensing and Their Effect on Virulence of Vibrio spp”
For at least one entry, the source does not settle the construct or the ends of the probe. Weaker means in comparison with the reference protein, sequence or condition of that experiment.

The chains behind the UniProt entries cited, without tags or fusion partners. Where a name states a change or a piece, a line headed by the entry shows the natural chain unless it says otherwise.
UniProt P21308: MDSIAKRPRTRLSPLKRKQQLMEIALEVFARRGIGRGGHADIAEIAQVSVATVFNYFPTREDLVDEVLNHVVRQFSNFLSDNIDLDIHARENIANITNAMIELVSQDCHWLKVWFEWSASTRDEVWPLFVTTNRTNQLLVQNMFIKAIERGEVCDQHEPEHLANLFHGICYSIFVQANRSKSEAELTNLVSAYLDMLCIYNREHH

Target: GST-LuxR (Vibrio harveyi) (UniProt P21308)
Experiment: fluorescence anisotropy
Settings: value only in Fig. 2B, 30°C, fluorescence polarisation, excitation 480 nm, emission 535 nm, binding buffer, duplex annealed in NaCl-Tris-EDTA, recombinant protein, protein details: GST, label: 5' fluorescein on strand 1

Measured: binding result

TATTGATAAATTTATCAATAA (double strand) [V. harveyi consensus LuxR binding sequence]
binds more weakly: 50 uM 2-nitro-cinnamaldehyde | 50 uM 3,4-dichloro-cinnamaldehyde | 50 uM (E)-2-nonenal | 50 uM (E)-2-pentenal | 50 uM (E)-3-decen-2-one | 50 uM (E)-4-phenyl-3-buten-2-one | 50 uM cinnamaldehyde
